Data as given in PubChem BioAssay AID504761 (Drosophila RNAi Screening Center, 2011)
Screen: 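Fly genes whose silencing reduces dengue virus type 2 infection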 (primary screen). Cell system: D.Mel-2 cells from Drosophila. Knock-down reagent: long dsRNA against Drosophila genes. Treatment: infection with dengue virus type 2; dose and infection time not stated. Detection: 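Cells stained for dengue envelope protein and imaged; percent of infected cells per well on duplicate plates, ranked by infection, with stained nuclei counted for cell number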. Direction: infection score: higher = more virus-infected cells; cell count: higher = more cells in the well. Rule for the call: 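Very low infection ranking in both replicate wells (chance probability at most 0.065), then a retest showing infection dropped 1.5-fold or more at p below 0.05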. Meaning of the calls: active = confirmed: knock-down lowers infection; inactive = not picked or not confirmed.
The deposit covers about 22,000 reagents; shown is an unselected part of those with a known target gene and a result. Over the whole deposit, 116 (0.52%) were called active. 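Calls depend on retest data that are not deposited; infection was ranked per plate without normalising between plates; the unit of the infection score is not given.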 Raw values vary from plate to plate and are shown uncorrected. Entries without a mark were called inactive. Names joined by + are all predicted targets of the reagent. Further read-outs or replicates are left out here. Not stated in the record: the amount of reagent, the time to read-out.

The opening 6 entries, to show the layout:
| gene | DRSC id | infection score, replicate 1 | infection score, replicate 2 | cell count, replicate 1 |
| --- | --- | --- | --- | --- |
| I-2 (GeneID 39156) | DRSC11194 | 1.78 | 2.39 | 5952 |
| I-2 (GeneID 39156) | DRSC23300 | 0.73 | 3.43 | 5633 |
| Orct (GeneID 42891) | DRSC16777 | 2.67 | 2.44 | 6897 |
| Orct (GeneID 42891) | DRSC25574 | 9.88 | 3.79 | 5505 |
| CG2127 (GeneID 35811) | DRSC06821 | 14.5 | 9.9 | 6746 |
| GstD10 (GeneID 59240) | DRSC15346 | 5.94 | 5.42 | 6790 |

The list itself, repeating the preview:
| gene | DRSC id | infection score, replicate 1 | infection score, replicate 2 | cell count, replicate 1 |
| --- | --- | --- | --- | --- |
| I-2 (GeneID 39156) | DRSC11194 | 1.78 | 2.39 | 5952 |
| I-2 (GeneID 39156) | DRSC23300 | 0.73 | 3.43 | 5633 |
| Orct (GeneID 42891) | DRSC16777 | 2.67 | 2.44 | 6897 |
| Orct (GeneID 42891) | DRSC25574 | 9.88 | 3.79 | 5505 |
| CG2127 (GeneID 35811) | DRSC06821 | 14.5 | 9.9 | 6746 |
| GstD10 (GeneID 59240) | DRSC15346 | 5.94 | 5.42 | 6790 |
| GstD10 (GeneID 59240) | DRSC25140 | 1.76 | 0.79 | 6691 |
| CG30082 (GeneID 246443) | DRSC22945 | 4.01 | 1.48 | 6686 |
| Kr (GeneID 38012) | DRSC04622 | 7.83 | 15.3 | 6196 |
| CG32985 (GeneID 326244) | DRSC02634 | 6.33 | 5.6 | 6497 |
| CG32985 (GeneID 326244) | DRSC24453 | 7.74 | 3.32 | 6019 |
| l(3)80Fg (GeneID 3354941) | DRSC21645 | 1.03 | 3.42 | 6020 |
| l(3)80Fg (GeneID 3354941) | DRSC22171 | 1.25 | 5.78 | 5937 |
| resilin (GeneID 36880) | DRSC05627 | 0.54 | 1.2 | 6279 |
| resilin (GeneID 36880) | DRSC06595 | 10.1 | 9.16 | 7203 |
| CG17270 (GeneID 42462) | DRSC15209 | 8.9 | 7.65 | 6392 |
| alpha-Est1 (GeneID 40909) | DRSC12612 | 2.68 | 10.2 | 6682 |
| CG13643 (GeneID 50074) | DRSC14641 | 19.9 | 8.25 | 5432 |
| CG13643 (GeneID 50074) | DRSC14642 | 3.52 | 2.79 | 5289 |
| CG13643 (GeneID 50074) | DRSC28349 | 5.48 | 13.2 | 6244 |
| CG13002 (GeneID 32681) | DRSC19521 | 5.82 | 1.89 | 5391 |
| CG13002 (GeneID 32681) | DRSC29478 | 20 | 19 | 3085 |
| CG9775 (GeneID 40576) | DRSC12330 | 6.66 | 11.2 | 6513 |
| CG9775 (GeneID 40576) | DRSC22667 | 3.32 | 3.63 | 6352 |
| Sec63 (GeneID 38819) | DRSC11002 | 0.52 | 4.41 | 6591 |
| Gadd45 (GeneID 35646) | DRSC06033 | 3.04 | 10.4 | 6649 |
| nenya (GeneID 318572) | DRSC13838 | 5 | 8.23 | 6354 |
| CG14043 (GeneID 33714) | DRSC02368 | 4.79 | 8.63 | 5933 |
| CG14043 (GeneID 33714) | DRSC29925 | 17.6 | 5.5 | 6280 |
| CG10950 (GeneID 36942) | DRSC06020 | 14.9 | 9.42 | 6413 |
| CG42360 (GeneID 37937) | DRSC04224 | 5.63 | 15.4 | 6785 |
| CG13305 (GeneID 38992) | DRSC24957 | 4.58 | 1.18 | 6704 |
| Ibf2 (GeneID 41102) | DRSC16551 | 4.28 | 3.33 | 6773 |
| His1:CG33816 + His1:CG33828 + His1:CG33819 + 21 more | DRSC21266 | 1.28 | 0.61 | 5465 |
| CG17362 (GeneID 39545) | DRSC10267 | 3.29 | 13 | 5526 |
| CG14933 + CG42486 | DRSC02415 | 2.89 | 4.74 | 6506 |
| CG5934 (GeneID 43289) | DRSC15922 | 1.35 | 5.63 | 6647 |
| CG5934 (GeneID 43289) | DRSC27431 | 35.8 | 4.57 | 6212 |
| vvl (GeneID 38752) | DRSC11409 | 2.03 | 8.38 | 6098 |
| vvl (GeneID 38752) | DRSC26681 | 9.42 | 1.55 | 6169 |
| Teh4 (GeneID 38501) | DRSC08457 | 3.88 | 1.06 | 5663 |
| CG12546 + CG14452 | DRSC11709 | 3.59 | 5.53 | 6817 |
| CG12546 + CG14452 | DRSC29979 | 14.8 | 7.75 | 6212 |
| pros (GeneID 41363) | DRSC12856 | 3.8 | 5.07 | 5891 |
| pros (GeneID 41363) | DRSC17032 | 14.7 | 9.74 | 6277 |
| pros (GeneID 41363) | DRSC27593 | 7.22 | 6.47 | 6454 |
| Atg3 (GeneID 40044) | DRSC10736 | 8.22 | 11.4 | 6010 |
| Atg3 (GeneID 40044) | DRSC21758 | 10.2 | 1.53 | 6936 |
| Atg3 (GeneID 40044) | DRSC29687 | 17.4 | 15.1 | 1719 |
| Or67c (GeneID 39189) | DRSC11242 | 2.63 | 3.15 | 5934 |
| CG42262 (retired record) (GeneID 50410) | DRSC17628 | 2.71 | 4.36 | 6345 |
| CG42262 (retired record) (GeneID 50410) | DRSC17974 | 9.52 | 9.02 | 6409 |
| CG11425 (GeneID 40472) | DRSC11657 | 4.16 | 2.5 | 5835 |
| CG11425 (GeneID 40472) | DRSC28400 | – | 3.02 | 401 |
| CG5292 (GeneID 42079) | DRSC15763 | 1.99 | 9.39 | 6681 |
| CG5292 (GeneID 42079) | DRSC26304 | 13.6 | 2.06 | 5947 |
| CG17528 (GeneID 3355134) | DRSC07761 | 3.94 | 0.67 | 5781 |
| CG3609 (GeneID 33421) | DRSC00620 | 1.94 | 18.7 | 6195 |
| CG3609 (GeneID 33421) | DRSC29005 | 13.7 | 15 | 5995 |
